This is an account of results in US8815829B2, “3′-azido purine nucleotide prodrugs for treatment of viral infections” (priority 2008, dated 2014).

The test system of this data set is MT-2 cells. The experiment in a line: Intracellular nucleotides formed in MT-2 cells. Type of data set: in vitro ADME. The conditions noted are these: 48 hr treatment; cells not given.

For `[N-]=[N+]=NC1C[C@H](n2cnc3c(O)nc(N)nc32)O[C@@H]1CO` (some centres unmarked) [Compound 56, 3′-Azido-2′,3′-dideoxyguanosine], the “dNTP levels (all but dGTP) after treatment” value is “doubled”.

With `[N-]=[N+]=N[C@H]1C[C@H](n2cnc3c(Cl)nc(N)nc32)O[C@@H]1CO` [Compound 68, ((2S,3S,5R)-5-(2-amino-6-chloro-9H-purin-9-yl)-3-azidotetrahydrofuran-2-yl)methanol], the “dNTP levels (all but dGTP) after treatment” value is recorded as “doubled”.
